The values that follow are results of earlier work, collected in PMC8943039.

Amino acid sequences for entries named in this document (tags omitted). Residues count along the entry.
UniProt Q496J9, 473-567: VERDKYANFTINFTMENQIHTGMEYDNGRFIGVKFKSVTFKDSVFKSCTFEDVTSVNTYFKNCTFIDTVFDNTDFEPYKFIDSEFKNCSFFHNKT

In the data set the target is SV2C luminal domain (Homo sapiens) (UniProt Q496J9).

By Kd is commonly meant the free concentration of one partner at which half of the binding sites on the other are occupied at equilibrium, for simple one-to-one binding. As for “BoNT/A1 receptor-binding domain RBD (from UniProt P0DPI1)”, the dissociation constant (Kd) is 260 nM.
